Data published in PMC10252837, “A Novel Time-Resolved Fluorescence Resonance Energy Transfer Assay for the Discovery of Small-Molecule Inhibitors of HIV-1 Tat-Regulated Transcription” (International Journal of Molecular Sciences, 2023).

Test system: HIV-1NL4-3
Assay: HIV-1 infectivity in TZM-bl cells (LTR-driven F-Luc)
Assay type: cell-based
Protocol: (A) (Upper panel) Doxycycline (Dox)-inducible Tat-expressing bl-DTR cells cultured in 96-well plates treated with two-fold serial dilutions of each compound in the presence of Dox (50 ng/mL). At 24 h after treatment, the activity of firefly luciferase (F-Luc), indicating Tat activity, was determined as described in the Materials and Methods section. (Bottom panel) TZM-bl cells were treated with two-fold serial dilutions of the indicated compound and then infected with the HIV-1NL4-3 strain at a multiplicity of infection (MOI) of 1. At 24 h after infection, the viral infectivity and cell viability were determined as described in the Materials and Methods section. […] (B) 2 × 10^5 TZM-bl cells growing in 6-well plates were infected with HIV-1 (MOI = 1), transfected with a Tat-expressing plasmid (2 μg) or treated with PMA ([…]) upon indicated compounds at indicated concentrations, respectively. At 24 h after treatment, LTR promoter activity was determined via a Bright-Glo Luciferase Assay Kit. […] The mobility of biotinylated TAR RNA was detected by chemiluminescence.
To determine the inhibitory effect of hit compounds on HIV-1 infection, we used TZM-bl cells (also referred to as JC53BL-13), which express HIV-1 receptors and contain the LTR-driven F-Luc gene controlled by HIV-1 infection, as described previously but with some minor modifications. […] At 24 h after infection, the inhibitory effect of the hit compounds on infectivity was determined using the Bright-Glo Luciferase Assay Kit (Promega). The dose–response data are expressed as a relative percentage compared to the DMSO control (vehicle). The inhibitory effects of the hit compounds on HIV-1 replication were determined as previously described. […] After infection, the cells were treated with hit compounds at the indicated concentrations at 3–5 days after treatment, and the inhibitory effect of hit compounds on viral replication was determined by the titration of virions from the cell supernatant using a p24 […]™ Assay Kit (PerkinElmer) according to the manufacturer’s instructions. […]

SMILES | SI (selectivity index)
Cc1ccc(Nc2cc3c(n[n+]([O-])n3CCCN3CCCCC3)c3c2C(=O)c2ccccc2C3=O)cc1 [Hit 464-A09, 6,11-Dioxo-3-(3-(piperidin-1-yl)propyl)-5-(p-tolylamino)-6,11-dihydro-3H-anthra[1,2-d][1,2,3]triazole 2-oxide] | 1.645
O=C(O)C1CCCc2sc(C=Cc3cc(Cl)c4c(c3)OCCO4)nc21 (stereo not drawn) [Hit 458-F08, 2-(2-(8-Chloro-2,3-dihydrobenzo[b][1,4]dioxin-6-yl)vinyl)-4,5,6,7-tetrahydrobenzo[d]thiazole-4-carboxylic acid] | >9.720
Cc1ccc(-c2csc3ncnc(NCCCc4n[nH]c(N)c4C#N)c23)cc1 [Hit 463-B11, 5-Amino-3-(3-(5-p-tolylthieno[2,3-d]pyrimidin-4-ylamino)propyl)-1H-pyrazole-4-carbonitrile] | >2.484
